Results deposited as PubChem BioAssay AID504761 (Drosophila RNAi Screening Center, 2011)

Purpose: 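Genome-wide fly cell screen for genes dengue virus requires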 (primary screen)
System: D.Mel-2 cells from Drosophila
Reagent: long dsRNA against Drosophila genes
Treatment: infection with dengue virus type 2; dose and infection time not stated
Detection: 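Cells stained for dengue envelope protein and imaged; percent of infected cells per well on duplicate plates, ranked by infection, with stained nuclei counted for cell number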
Scale: infection score: higher = more virus-infected cells
Call rule: 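Low infection ranks in the two replicates (chance level up to 0.065) followed by a retest with a 1.5-fold or larger significant decrease, p below 0.05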
Meaning of the calls: active = confirmed: knock-down lowers infection; inactive = not picked or not confirmed
The deposit covers about 22,000 reagents; this is a random part of those that have a named target and a result. In the full data, 116 (0.52%) were called active. 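Calls depend on retest data that are not deposited; infection was ranked per plate without normalising between plates; the unit of the infection score is not given.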 A plus sign joins genes that one reagent is predicted to hit. Further read-outs or replicates are left out here. Not given: the amount of reagent, the time to read-out.

| Gene | dsRNA | infection score, replicate 1 | Outcome |
| --- | --- | --- | --- |
| CG33255 (retired record) + hpRNA:CR32205 | DRSC09610 | 2.73 | inactive |
| CG33255 (retired record) + hpRNA:CR32205 | DRSC09611 | 1.88 | inactive |
| Acp62F | DRSC08136 | 0.56 | inactive |
| CG12828 | DRSC06177 | 1.74 | inactive |
| CG17672 | DRSC09230 | 2.4 | inactive |
| CG17672 | DRSC10278 | 15.1 | inactive |
| CG7135 | DRSC20026 | 7.03 | inactive |
| CG7135 | DRSC29942 | 37.8 | inactive |
| CG32100 | DRSC09725 | 3.99 | inactive |
| CG32100 | DRSC10331 | 1.74 | inactive |
| CG3345 | DRSC00596 | 5.04 | inactive |
| Syt1 | DRSC00156 | 1.08 | inactive |
| Syt1 | DRSC00157 | 2.85 | inactive |
| Syt1 | DRSC00158 | 4.52 | inactive |
| Syt1 | DRSC00840 | 10.4 | inactive |
| Syt1 | DRSC22077 | 3.8 | inactive |
| Syt1 | DRSC27456 | 7.22 | inactive |
| mask | DRSC15370 | 6.66 | inactive |
| mask | DRSC16005 | 1.83 | inactive |
| mask | DRSC16018 | 4.37 | inactive |
| mask | DRSC25063 | 12.6 | inactive |
| Nup98-96 | DRSC14209 | 13.1 | inactive |
| Nup98-96 | DRSC14210 | 13.2 | inactive |
| CG9304 | DRSC04538 | 7.03 | inactive |
| CG9304 | DRSC26210 | 16.3 | inactive |
| CG7606 | DRSC16268 | 3.62 | inactive |
| CG5004 | DRSC19929 | 17.7 | inactive |
| CG5004 | DRSC19930 | 12.2 | inactive |
| gcm | DRSC03536 | 26.1 | inactive |
| Arp8 | DRSC20059 | 4.95 | inactive |
| Arp8 | DRSC26432 | 4.13 | inactive |
| CG14492 | DRSC06463 | 15.1 | inactive |
| CG18542 + CG32939 | DRSC15342 | 7.7 | inactive |
| nan | DRSC10551 | 1.93 | inactive |
| CG33770 | DRSC11717 | 4.01 | inactive |
| CG30380 | DRSC05069 | 0.09 | inactive |
| CG33288 | DRSC11484 | 3.39 | inactive |
| ng2 | DRSC18803 | 6.77 | inactive |
| CG9098 | DRSC03136 | 8.95 | inactive |
| CG9098 | DRSC22501 | 0.87 | inactive |
| CG9098 | DRSC28828 | 27.4 | inactive |
| swi2 | DRSC06457 | 7.46 | inactive |
| neur | DRSC17013 | 5.16 | inactive |
| CG32187 | DRSC10521 | 1.01 | inactive |
| CG6216 | DRSC10606 | 4.71 | inactive |
| CG6216 | DRSC28352 | 17.1 | inactive |
| bard | DRSC14796 | 2.72 | inactive |
| CHKov2 | DRSC14262 | 7.17 | inactive |
| CHKov2 | DRSC28882 | 13.8 | inactive |
| wus | DRSC20278 | 1.5 | inactive |
| RpS12 | DRSC11270 | 12.2 | inactive |
| CG16741 | DRSC06622 | 3.07 | inactive |
| CG16741 | DRSC24117 | 2.38 | inactive |
| CG14153 | DRSC10155 | 0.73 | inactive |
| CG14153 | DRSC22595 | 7.71 | inactive |
| CG18537 | DRSC06764 | 10.6 | inactive |
| CG18537 | DRSC29847 | 1.57 | inactive |
| TAF1B | DRSC16001 | 29.8 | inactive |
| Porin2 | DRSC02584 | 9.83 | inactive |
| Miox | DRSC10747 | 0.71 | inactive |
| Miox | DRSC24306 | 8.27 | inactive |
| Cerk | DRSC12285 | 2.18 | inactive |
| CG7227 | DRSC03032 | 4.72 | inactive |
| Vajk2 | DRSC02540 | 14.5 | inactive |
| Vajk2 | DRSC25275 | 4.01 | inactive |
| gro | DRSC16962 | 5.07 | inactive |
| Nup44A | DRSC07248 | 3.91 | inactive |
| Nup44A | DRSC28141 | 8.64 | inactive |
| CG30196 | DRSC04156 | 8.03 | inactive |
| CG1354 | DRSC17902 | 6.76 | inactive |
| Tim10 + CG42497 | DRSC04664 | 3.49 | inactive |
| CG8852 | DRSC00719 | 7.49 | inactive |
| CG8852 | DRSC24465 | 1.9 | inactive |
| CG9903 | DRSC20213 | 3.93 | inactive |

11 consecutive records from above:
| Gene | dsRNA | infection score, replicate 1 | Outcome |
| --- | --- | --- | --- |
| mask | DRSC15370 | 6.66 | inactive |
| mask | DRSC16005 | 1.83 | inactive |
| mask | DRSC16018 | 4.37 | inactive |
| mask | DRSC25063 | 12.6 | inactive |
| Nup98-96 | DRSC14209 | 13.1 | inactive |
| Nup98-96 | DRSC14210 | 13.2 | inactive |
| CG9304 | DRSC04538 | 7.03 | inactive |
| CG9304 | DRSC26210 | 16.3 | inactive |
| CG7606 | DRSC16268 | 3.62 | inactive |
| CG5004 | DRSC19929 | 17.7 | inactive |
| CG5004 | DRSC19930 | 12.2 | inactive |
